Measured values from several laboratories, pooled; numbers as filed in NIAID ChemDB.

All rows: whole-cell or culture tests; species: Hepatitis B virus; read by: PCR; endpoint: EC50

Two numbers with a dash give a range or band. Rows are shuffled and stem from different studies. An empty or dashed field is not shown. ECn: concentration that inhibits the pathogen or its effect by n%.

compound,strain,conditions,cell line,changes,result
CC(C)NC(=O)C1CN(C(=O)c2ccc(Br)c(Cl)c2)CCS1(=O)=O,-,-,HepG2.117,-,0.5–5 µM
O=C(CNC(=O)c1ccccn1)Nc1ccc(Cl)nc1Cl,-,-,HepG2.2.15,-,4 µM
Cc1cc(NC(=O)c2c3c(cn2C)S(=O)(=O)NC2CN(C(=O)C(=O)NC4CC4)CC2CO3)ccc1F,-,-,HepAD38,-,<0.5 µM
CC1O[C@H]2[C@@H]3C4=C(C(=O)OCC4=C[C@@]45C6=C(C(=O)OCC6)[C@@H](C[C@@H]34)OC5C)[C@H]3O[C@H](O)[C@@H]1C1=CCOC(=O)[C@@]132,-,-,HepG2.2.15,-,5.34 µM
Cc1cc(C)n(-c2nc3c(c(=O)n2-c2ccc(OC[C@@H](O)CO)cc2)C[C@@H](C)N(C(=O)c2ccc(Br)c(C(F)(F)F)c2)C3)n1,Genotype D,-,HepG2.117,-,0.05–0.5 µM
COc1ccc(-n2c(=O)c3c(n4ncc(NC(=O)Cc5ccccc5)c24)CN(C(=O)c2ccc(Cl)c(Cl)c2)CC3)cc1,-,3 d,HepG2.117,-,>5 µM
CN(C)S(=O)(=O)NCC(=O)Nc1ccc(Cl)nc1Cl,-,-,HepG2.2.15,-,46 µM
CNC(=O)c1ccc(-n2c(-n3nc(C)cc3C)nc3c(c2=O)C[C@@H](C)N(C(=O)c2ccc(Br)c(C(F)(F)F)c2)C3)cc1Cl,Genotype D,-,HepG2.117,-,≤0.05 µM
O=C(CNC(=O)Nc1cccc(F)c1)Nc1ccc(Cl)nc1Cl,-,-,HepG2.2.15,-,19 µM
Cc1cc(NC(=O)c2c3c(cn2C)S(=O)(=O)NC2CCN(C(=O)C(=O)N[C@@H](C)C(F)(F)F)CC2CO3)ccc1F,-,-,HepAD38,-,<0.5 µM
CN(C)C(=O)NCC(=O)Nc1ccc(Cl)nc1Cl,-,-,HepG2.2.15,-,>100 µM
C[C@@H](c1cnc([C@]2(F)CN(C(=O)c3ccc(Br)c(Cl)c3)CCS2(=O)=O)s1)c1ccccc1F,-,-,HepG2.117,-,>5 µM
COc1ccc([C@@H](C)NC(=O)c2c3n(c(=O)n2-c2ccc(OC)cc2)CCN(C(=O)c2ccc(Br)c(Cl)c2)C3)cc1,-,-,HepG2.117,-,0.5–5 µM
Cc1cc(NC(=O)c2c3c(cn2C)S(=O)(=O)N[C@H]2CN(C(=O)C(=O)N[C@H](C)C(F)(F)F)C[C@H]2CO3)ccc1F,-,-,HepG2,Y118F,0.00637 µM
CCOC(=O)C1=C(CN2CC(F)(F)[C@H]3[C@@H]2CCN3C[C@@H](OC)C(C)(C)C(=O)O)NC(c2nc(C)cs2)=N[C@H]1c1cccc(F)c1C,-,-,HepG2.2.15,-,0.002 µM
CNC(=O)c1ccc(-n2c(=O)c3c(n4ncc(NCc5ccc(OCC(N)=O)cc5)c24)CN(C(=O)c2ccc(Br)c(Cl)c2)CC3)cc1,-,3 d,HepG2.117,-,0.1–0.5 µM
CC1O[C@@H]2C[C@@H]3[C@@H]4C5=C(C(=O)OCC5=C[C@]13C1=C2C(=O)OCC1)[C@@H](O)[C@]12C(=O)OCCC1=C(C=O)[C@@H](C)O[C@@H]42,-,-,-,-,2.58 µM
Cc1cc(NC(=O)c2c3c(cn2C)S(=O)(=O)N[C@H]2CN(C(=O)C(=O)NCC4CC4)C[C@H]2CS3)ccc1F,-,-,HepAD38,-,<0.5 µM
C[C@H](NC(=O)C(=O)N1CC[C@]2(COc3c(cn(C)c3C(=O)Nc3ccc(F)c(Cl)c3)S(=O)(=O)N2)C1)C(F)(F)F,Genotype D,-,HepAD38,-,<0.5 µM
COc1ccc(-n2c(C(=O)N[C@H](c3ccccc3)C(C)C)c3n(c2=O)CCN(C(=O)c2ccc(Br)c(Cl)c2)C3)cc1,-,-,HepG2.117,-,0.5–5 µM
C[C@H](NC(=O)C(=O)N1CC[C@]2(COc3c(cn(C)c3C(=O)Nc3ccc(F)c(C(F)F)c3)S(=O)(=O)N2)C1)C(F)(F)F,Genotype D,-,HepAD38,-,<0.5 µM
C[C@@H]1Cc2nn3c(c2CN1C(=O)c1ccc(Br)c(C#N)c1)C(=O)N([C@@H](C)c1ccc(OC(F)(F)F)cc1)CC3,-,-,HepG2.117,-,0.017 µM
Cc1cc(NC(=O)c2c3c(cn2C)S(=O)(=O)N[C@H]2CN(C(=O)C(=O)NC4(C)CC4)C[C@H]2CO3)ccc1F,-,-,HepAD38,-,<0.5 µM
CNC(=O)c1ccc(-n2c(=O)c3c(n4ncc(Cc5ccc(C#N)cc5)c24)CN(C(=O)c2ccc(Cl)c(Cl)c2)CC3)cc1,-,3 d,HepG2.117,-,<0.1 µM
O=C(c1ccc(Br)c(Cl)c1)N1CCS(=O)(=O)[C@](F)(C(=O)NCCc2ccccc2)C1,-,-,HepG2.117,-,>5 µM
Cc1nnc(C(=O)N2CCC3(COc4c(cn(C)c4C(=O)Nc4ccc(F)c(F)c4)S(=O)(=O)N3)C2)o1,Genotype D,-,HepAD38,-,<0.5 µM
O=C(c1ccc(Br)c(Cl)c1)N1CCS(=O)(=O)[C@@](F)(c2ncc(Cc3ccccc3)s2)C1,-,-,HepG2.117,-,0.5–5 µM
Cc1cc(C)n(-c2nc3c(c(=O)n2-c2cnc4c(ncn4C)n2)C[C@@H](C)N(C(=O)c2ccc(Br)c(C(F)(F)F)c2)C3)n1,Genotype D,-,HepG2.117,-,≤0.05 µM
CCOC(=O)C1=C(CN2CC(F)(F)[C@@H]3[C@H]2CON3C[C@@H](OC)C(C)(C)C(=O)O)NC(c2nc(C)cs2)=N[C@H]1c1cccc(F)c1C,-,-,HepG2.2.15,-,0.001 µM
C[C@@H]1Cc2nn3c(c2CN1C(=O)c1ccc(Cl)c(C#N)c1)C(=O)N([C@H](C)c1ccnc(C(F)(F)F)c1)CC3,-,-,HepG2.117,-,0.7 µM
C[C@H](NC(=O)C(=O)N1CCC2(COc3c(cn(C)c3C(=O)Nc3ccc(F)c(F)c3)S(=O)(=O)N2)C1)C(F)(F)F,Genotype D,-,HepAD38,-,<0.5 µM
COc1ccc(-n2c(C(=O)NCc3ccc(CC(N)=O)cc3)c3n(c2=O)CCN(C(=O)c2ccc(Br)c(Cl)c2)C3)cc1,-,-,HepG2.117,-,0.5–5 µM
COC(=O)C1=C(CN2CC(F)(F)[C@H]3[C@@H]2CCN3C[C@@H](F)C(C)(C)C(=O)O)NC(c2nc(C)cs2)=N[C@H]1c1cccc(F)c1Cl,-,-,HepG2.2.15,-,0.001 µM
O=C(c1ccc(Br)c(Cl)c1)N1CCS(=O)(=O)[C@@H](c2cccs2)C1,-,-,HepG2.2.15,-,<0.1 µM
C[C@H](NC(=O)c1c2n(c(=O)n1-c1ccc(OCC(F)(F)F)cc1)CCN(C(=O)c1ccc(Br)c(Cl)c1)C2)c1ccc(OC(C)(C)C(N)=O)cc1F,-,-,HepG2.117,-,0.1–0.5 µM
CCOC(=O)C1=C(CN2CC(F)(F)[C@@H]3[C@H]2CON3C[C@H](F)CCC(C)(C)C(=O)O)NC(c2nccs2)=N[C@H]1c1cccc(F)c1C,-,-,HepG2.2.15,-,0.008 µM
Cc1cc(C)n(-c2nc3c(c(=O)n2-c2ccc(N4CC[C@H](O)C4)nc2)C[C@@H](C)N(C(=O)c2ccc(Br)c(C(F)(F)F)c2)C3)n1,Genotype D,-,HepG2.117,-,≤0.05 µM
COC(=O)C1=C(CN2CC(F)(F)[C@@H]3[C@H]2CON3C[C@@H](F)C(C)(C)C(=O)O)NC(c2nccs2)=N[C@H]1c1ccc(F)cc1Cl,-,-,HepG2.2.15,-,0.019 µM
O=C(Nc1ccc(F)c(Cl)c1)N1CCc2c(n3nccc3n(Cc3ccccc3)c2=O)C1,-,3 d,HepG2.117,-,0.5–5 µM
CCOC(=O)C1=C(CN2CC(F)(F)[C@@H]3[C@H]2CON3CC(O)(CC)C(=O)O)NC(c2nccs2)=N[C@H]1c1cccc(F)c1C,-,-,HepG2.2.15,-,0.773 µM
COc1ccc(-n2c(C(=O)NCc3ccccc3)c3n(c2=O)CCN(C(=O)c2cc4c(Cl)cccc4[nH]2)C3)cc1,-,-,HepG2.117,-,0.1–0.5 µM
C[C@@H](NC(=O)C(=O)N1CC2(COc3c(cn(C)c3C(=O)Nc3ccc(F)c(Cl)c3)S(=O)(=O)N2)C1)C(F)(F)F,Genotype D,-,HepAD38,-,<0.5 µM
CNC(=O)c1ccc(-n2c(=O)c3c(n4ncc(Cc5ccccc5)c24)CN(C(=O)c2ccc(Br)c(Cl)c2)[C@@H](C)C3)cc1,-,3 d,HepG2.117,-,<0.1 µM
O=C(c1ccc(Cl)c(Cl)c1)N1CCc2nn3c(c2C1)-c1noc(-c2ccccc2)c1CCC3,-,-,HepG2.117,-,>10 µM
C[C@@H](NC(=O)C(=O)N1CC[C@@]2(COc3c(cn(C)c3C(=O)Nc3ccc(F)c(Cl)c3)S(=O)(=O)N2)C1)C(F)(F)F,Genotype D,-,HepAD38,-,<0.5 µM
COc1ccc(-n2c(C(=O)N[C@H](c3ccccc3)C(F)F)c3n(c2=O)CCN(C(=O)c2ccc(Br)c(Cl)c2)C3)cc1,-,-,HepG2.117,-,0.1–0.5 µM
Cn1cc2c(c1C(=O)Nc1ccc(F)c(C(F)F)c1)OC[C@@]1(CCN(C(=O)C(=O)NCC(F)(F)F)C1)NS2(=O)=O,Genotype D,-,HepAD38,-,<0.5 µM
Cc1cc(C)n(-c2nc3c(c(=O)n2-c2ccc(OC4CC(O)C4)cc2)C[C@@H](C)N(C(=O)c2ccc(Br)c(C(F)(F)F)c2)C3)n1,Genotype D,-,HepG2.117,-,≤0.05 µM
COC(=O)C1=C(CN2CC(F)(F)[C@@H]3[C@H]2CON3C[C@H](O)C(C)(C)C(=O)O)NC(c2nccs2)=N[C@H]1c1ccc(F)cc1Cl,-,-,HepG2.2.15,-,0.167 µM
CNC(=O)c1ccc(-n2c(=O)c3c(n4ncc(NCc5ccc(OC(F)F)cc5)c24)CN(C(=O)c2ccc(Br)c(Cl)c2)CC3)cc1,-,3 d,HepG2.117,-,<0.1 µM
CC1=CC2c3c(cc4oc(-c5cc(O)cc(O)c5)cc4c3C)O[C@@]3(c4ccc(O)cc4O)Oc4cc(O)ccc4[C@H](C1)C23,-,-,HepG2.2.15,-,9.1 µM
O=C(c1ccc(Br)c(Cl)c1)N1CCS(=O)(=O)[C@](F)(C(=O)NCc2ccccc2)C1,-,-,HepG2.117,-,<0.1 µM
C[C@@H]1Cc2nn3c(c2CN1C(=O)c1ccc(Cl)c(C#N)c1)C(=O)N(Cc1ccc2c(c1)OC(F)(F)O2)CC3,-,-,HepG2.117,-,0.058 µM
C[C@@H](NC(=O)C(=O)N1CCC2(COc3c(cn(C)c3C(=O)Nc3ccc(F)c(F)c3)S(=O)(=O)N2)C1)C(F)(F)F,Genotype D,-,HepAD38,-,<0.5 µM
C[C@@H]1Cc2nn3c(c2CN1C(=O)c1ccc(Cl)c(C#N)c1)C(=O)N([C@H](C)c1ccc2c(c1)OC(F)(F)O2)CC3,-,-,HepG2.117,-,0.032 µM
O=C(c1ccc(Br)c(Cl)c1)N1CCS(=O)(=O)[C@](F)(c2ncc(Cc3ccccc3)s2)C1,-,-,HepG2.117,-,<0.1 µM
COC(=O)[C@]12C3=C([C@H](C)O[C@H]1[C@@H]1C4=C(C(=O)OCC4=C[C@@]45C6=C(C(=O)OCC6)[C@@H](C[C@@H]14)OC5C)[C@H]2O)[C@@H](O)OCC3,-,-,HepG2.2.15,-,1.53 µM
O=C(NCc1ccccc1)c1c2n(c(=O)n1-c1ccc(N3CCC3)cc1)CCN(C(=O)c1ccc(Br)c(Cl)c1)C2,-,-,HepG2.117,-,0.1–0.5 µM
COC(=O)C1=C(CN2CC(F)(F)[C@@H]3[C@H]2CON3C[C@@H](F)C(C)(C)C(=O)O)NC(c2nccs2)=N[C@H]1c1cccc(F)c1C,-,-,HepG2.2.15,-,0.024 µM

7 of the rows above, restated:

compound,strain,conditions,cell line,changes,result
O=C(CNC(=O)c1ccccn1)Nc1ccc(Cl)nc1Cl,-,-,HepG2.2.15,-,4 µM
COc1ccc(-n2c(=O)c3c(n4ncc(NC(=O)Cc5ccccc5)c24)CN(C(=O)c2ccc(Cl)c(Cl)c2)CC3)cc1,-,3 d,HepG2.117,-,>5 µM
COC(=O)C1=C(CN2CC(F)(F)[C@@H]3[C@H]2CON3C[C@@H](F)C(C)(C)C(=O)O)NC(c2nccs2)=N[C@H]1c1ccc(F)cc1Cl,-,-,HepG2.2.15,-,0.019 µM
Cc1nnc(C(=O)N2CCC3(COc4c(cn(C)c4C(=O)Nc4ccc(F)c(F)c4)S(=O)(=O)N3)C2)o1,Genotype D,-,HepAD38,-,<0.5 µM
COC(=O)[C@]12C3=C([C@H](C)O[C@H]1[C@@H]1C4=C(C(=O)OCC4=C[C@@]45C6=C(C(=O)OCC6)[C@@H](C[C@@H]14)OC5C)[C@H]2O)[C@@H](O)OCC3,-,-,HepG2.2.15,-,1.53 µM
CNC(=O)c1ccc(-n2c(=O)c3c(n4ncc(Cc5ccc(C#N)cc5)c24)CN(C(=O)c2ccc(Cl)c(Cl)c2)CC3)cc1,-,3 d,HepG2.117,-,<0.1 µM
CNC(=O)c1ccc(-n2c(=O)c3c(n4ncc(Cc5ccccc5)c24)CN(C(=O)c2ccc(Br)c(Cl)c2)[C@@H](C)C3)cc1,-,3 d,HepG2.117,-,<0.1 µM